# Assay results from PubChem BioAssay AID624483 (NMMLSC, 2012).
# Only a part is listed here, and it is no random draw. Calls of active or inactive are those of the source. No stated cut-off is given here; in the data, active means fluorescence intensity above about 16000; inconclusive means no clear call, values can overlap the other calls; inactive means below that.
# Assay: counter-screen for toxin protease inhibitors: compound fluorescence, primary screen, artefact control for toxin protease inhibitor project, biochemical, multiplex microsphere, HTS (AID 624483); further: test concentration not given here
# Conditions: compound autofluorescence counterscreen, microsphere flow cytometry; active compounds read high
row,SMILES,fluorescence intensity
1,CP(=S)(Nn1cnnc1)Oc1ccccc1 (stereo not drawn),inactive: 2360
2,CCOC(=O)Nc1cccc([As](=O)(O)O)c1,inactive: 2980
3,CCOC(=O)C(CC)C1=NC(C)(C)Cc2ccccc21.O=[N+]([O-])c1cc([N+](=O)[O-])c(O)c([N+](=O)[O-])c1 (stereo not drawn),inactive: 4380
4,CN(C)C1(CNC(=O)c2ccc(S(C)(=O)=O)cc2)CCCCC1,inactive: 3240
5,CC1=C2N=C(C=C3N=C(C(C)=C4[N-][C@@](C)([C@@H]5N=C1[C@](C)(CCC(=O)NC[C@@H](C)OP(=O)([O-])O[C@H]1[C@@H](O)[C@@H](n6cnc7cc(C)c(C)cc76)O[C@@H]1CO)[C@H]5CC(N)=O)[C@@](C)(CC(N)=O)[C@@H]4CCC(N)=O)[C@@](C)(CC(N)=O)[C@@H]3CCC(N)=O)C(C)(C)[C@@H]2CCC(N)=O.[C-]#N.[Co+3],inactive: 5570
6,O=[N+]([O-])c1cc([N+](=O)[O-])c(Nc2nnnn2CCO)c([N+](=O)[O-])c1,inactive: 4240
7,CCCC1OP(=O)(Nc2ccccc2)OCC1CC (stereo not drawn),inactive: 4260
8,O=C(/C=C/c1ccccc1)OC1CN2CCC1CC2 (stereo not drawn),inactive: 5620
9,CC1CCC(C(C)C)C(OP(=O)(Nc2ccccn2)c2ccccc2)C1 (stereo not drawn),inactive: 3460
10,Cc1ccc(C(=O)OC2CN3CCC2CC3)cc1 (stereo not drawn),inactive: 3050
11,Cc1nn(-c2ccccc2)c2c1P(=O)(N1CCOCC1)N(C)C(c1ccccc1)=N2 (stereo not drawn),inactive: 4430
12,COc1cc(C2NCCC3(OCCO3)C2(C)C)cc(OC)c1OC.O=[N+]([O-])c1cc([N+](=O)[O-])c(O)c([N+](=O)[O-])c1 (stereo not drawn),inactive: 2480
13,CCCOc1ccc(NP(C)(=O)Oc2ccc(Cl)cc2)cc1 (stereo not drawn),inactive: 5420
14,CP(=O)(Nc1ccc(SC(F)(F)F)cc1)Oc1ccccc1 (stereo not drawn),inactive: 2530
15,Nc1cccc([As](=O)(O)c2ccccc2)c1,inactive: 4540
16,COc1ccc(-c2ccccn2)cc1.O=[N+]([O-])c1cc([N+](=O)[O-])c(O)c([N+](=O)[O-])c1,inactive: 6340
17,O=[As](O)(c1cccs1)c1cccs1,inactive: 3280
18,Cc1ccc(OCC(=O)OC2CN3CCC2CC3)cc1 (stereo not drawn),inactive: 4360
19,NS(=O)(=O)c1cccc(NC(=O)COC(=O)C(O)(c2ccccc2)c2ccccc2)c1,inactive: 4000
20,COc1ccccc1OP(C)(=O)Nc1c(C)cccc1C (stereo not drawn),inactive: 4200
21,CN1CCCCC1COC(=O)C1(O)c2ccccc2CCc2ccccc21 (stereo not drawn),inactive: 2050
22,O=P1(Nc2ncccn2)COc2ccccc2OC1,inactive: 9270

row,SMILES,fluorescence intensity
1,CC(C)(C)C(=O)NC(Sc1ncccn1)C(Cl)(Cl)Cl (stereo not drawn),inactive: 4210
2,O=P1(N(CCCl)CCCl)NCCC(C(F)(F)F)O1 (stereo not drawn),inactive: 3870
3,CN(Cc1cccnc1)C(=O)COc1ccc(Cl)c(Cl)c1.O=[N+]([O-])c1cc([N+](=O)[O-])c(O)c([N+](=O)[O-])c1,inactive: 4310
4,O=[N+]([O-])c1cc([N+](=O)[O-])c(-n2nnc3ccccc32)c([N+](=O)[O-])c1,inactive: 3490
5,CCOP(=O)(NC(=NC(C)c1ccccc1)NC(C)c1ccccc1)OCC (stereo not drawn),inactive: 3360
6,Nc1ccc(CCCCOc2ccccc2)cc1.O=[N+]([O-])c1cc([N+](=O)[O-])c(O)c([N+](=O)[O-])c1,inactive: 6150
7,O=P1(Nc2ccccn2)COc2ccccc2OC1,inactive: 3460
8,CCC1=CC2Cc3nc4ccc(Cl)cc4c(N)c3C(C1)C2 (stereo not drawn),inactive: 3410
9,O=C(O)C(O)c1ccc(N(CCCl)CCCl)cc1.c1ccncc1 (stereo not drawn),inactive: 3210
10,CCOP(=O)(Nc1ccc(C)cn1)OCC,inactive: 3500
11,CN(CCCl)Cc1cc(Cl)c(NC2=NCCN2)c(Cl)c1,inactive: 5590
12,Cc1ccc(S(=O)(=O)N(CCCN)CCCc2c(C)nc(N)[nH]c2=O)cc1.O=[N+]([O-])c1cc([N+](=O)[O-])c(O)c([N+](=O)[O-])c1,inactive: 5940
13,CC(C)/C=N\N=C(\N)N[N+](=O)[O-],inactive: 4000
14,CN(C(=O)Cc1ccc(Cl)c(Cl)c1)[C@@H]1CCCC[C@H]1N1CCCC1,inactive: 5920
15,Cc1nc2ccc3ccccc3c2s1.O=[N+]([O-])c1cc([N+](=O)[O-])c(O)c([N+](=O)[O-])c1,inactive: 2790
16,CC1(CBr)Cn2c(nc3ccccc3c2=O)S1 (stereo not drawn),inactive: 3300
17,O=[N+]([O-])c1cc([N+](=O)[O-])c(-c2cnn(-c3ccccc3)c2)c([N+](=O)[O-])c1,inactive: 4110
18,Cc1cc(C)cc(OP(C)(=O)Nc2ccc(C)cc2C)c1 (stereo not drawn),inactive: 11800
19,Cc1cccc(OCC(=O)OC2CN3CCC2CC3)c1 (stereo not drawn),inactive: 2100
20,O=[As](O)(c1cccc(O)c1)c1cccc(O)c1,inactive: 3270
21,CCOC(=O)c1ccc(NP(C)(=O)Oc2cc(C)cc(C)c2)cc1 (stereo not drawn),inactive: 2710
22,CS(=O)(=O)c1ccc(Cl)c(NC(=O)COC(=O)C(O)(c2ccccc2)c2ccccc2)c1,inactive: 5990

row,SMILES,fluorescence intensity
1,COc1ccccc1OP(C)(=O)Nc1cccc(Br)c1 (stereo not drawn),inactive: 4590
2,O=[As](O)(O)c1cccnc1,inactive: 3940
3,COc1cc(C(=O)NCC2(N3CCOCC3)CCCCC2)cc(Cl)c1OC(C)C,inactive: 4800
4,CCOP(=O)(Nc1cccc2ccccc12)OCC,inactive: 2480
5,Nc1cccc2c([As](=O)(O)O)cccc12,inactive: 3830
6,Cc1ccc(NCCc2c([N+](=O)[O-])cc([N+](=O)[O-])cc2[N+](=O)[O-])cc1,inactive: 2090
7,Cc1cc(C)cc(OP(C)(=O)Nc2ccccn2)c1 (stereo not drawn),inactive: 5820
8,CP(=O)(Nc1cccc(Br)c1)Oc1ccccc1 (stereo not drawn),inactive: 4120
9,Cc1ccc(C)c(NP(C)(=O)Oc2ccccc2)c1 (stereo not drawn),inactive: 3760
10,CCCOP(=S)(Nc1nc(N)cc(=O)[nH]1)OCCC,inactive: 3420
11,Nc1ccccc1[As](=O)(O)c1ccccc1,inactive: 3300
12,O=C(O)COc1ccc([As](=O)(O)O)cc1[N+](=O)[O-],inactive: 3090
13,O=P(Nc1nccs1)(Oc1ccccc1)Oc1ccccc1,inactive: 1970
14,O=P(Nc1nccs1)(c1ccccc1)c1nc2ccccc2s1 (stereo not drawn),inactive: 5790
15,CCOP1(=S)c2c(C)nn(CCC#N)c2N=C(c2ccccc2F)N1C (stereo not drawn),inactive: 10500
16,O=C(O)c1cccc(Nc2c([N+](=O)[O-])cc([N+](=O)[O-])cc2[N+](=O)[O-])c1,inactive: 4300
17,CCOP1(=S)c2c(C)nn(CCC#N)c2N=C(c2ccc(F)cc2)N1C (stereo not drawn),inactive: 7190
18,CN(C(=O)Cc1ccccc1)[C@@H]1CC[C@]2(CCCO2)C[C@H]1N1CCCC1,inactive: 8080
19,CC1=NCCc2c1[nH]c1ccccc21.O=[N+]([O-])c1cc([N+](=O)[O-])c(O)c([N+](=O)[O-])c1,inactive: 3590
20,CN(C(=O)Cc1ccc(Cl)c(Cl)c1)[C@H]1CC[C@@]2(CCCO2)C[C@@H]1N1CCCC1,inactive: 5950
21,O=[N+]([O-])c1ccc2c(c1)nnn2O,inactive: 7980
22,CN(C)C(=O)c1cc([N+](=O)[O-])cc2c1-c1c(cc([N+](=O)[O-])cc1[N+](=O)[O-])C2=O,inactive: 3020

row,SMILES,fluorescence intensity
1,NC(=O)Nc1ccc([As](=O)(O)O)cc1,inactive: 3730
2,COc1ccc(OP(C)(=O)Nc2ccc(SC(F)(F)F)cc2)cc1 (stereo not drawn),inactive: 4180
3,CCOC(=O)c1ccc(NP(C)(=O)Oc2ccc(F)cc2)cc1 (stereo not drawn),inactive: 10700
4,CCN(CC)CCCNc1ccccc1[N+](=O)[O-].O=[N+]([O-])c1cc([N+](=O)[O-])c(O)c([N+](=O)[O-])c1,inactive: 6120
5,c1ccc(-c2nn[nH]n2)c(-c2nn[nH]n2)c1,inactive: 4230
6,CCNC(=S)/N=C(\N)N[N+](=O)[O-],inactive: 4380
7,O=C(NC1CCS(=O)(=O)C1)NP(=S)(Oc1ccccc1)Oc1ccccc1 (stereo not drawn),inactive: 4320
8,O=c1c2cc([N+](=O)[O-])ccc2[nH]c2c([N+](=O)[O-])cc([N+](=O)[O-])cc12,inactive: 4020
9,CCCCCOc1ccc(NP(C)(=O)Oc2ccc(Cl)cc2Cl)cc1 (stereo not drawn),inactive: 3640
10,O=[N+]([O-])c1cc([N+](=O)[O-])c(OC2CCCCC2O)c([N+](=O)[O-])c1 (stereo not drawn),inactive: 4100
11,CN(C)C(=O)Oc1noc2ccccc12,inactive: 3710
12,CC(NC(=O)COC(=O)C(O)(c1ccccc1)c1ccccc1)c1ccccc1 (stereo not drawn),inactive: 3600
13,CP(=O)(Nc1ccccc1)Oc1ccc(F)cc1 (stereo not drawn),inactive: 13100
14,CCN(CC)CCCOC(=O)C(O)(c1ccccc1)C1CCCCC1 (stereo not drawn),inactive: 3520
15,CCC(=O)N1C2C3N(C(=O)CC)C1C1N(C(=O)CC)C(C(N1C(=O)CC)N3C(=O)CC)N2C(=O)CC,inactive: 2790
16,O=C(OC1CN2CCC1CC2)c1ccccc1 (stereo not drawn),inactive: 3560
17,Cc1ccc(OP(=O)(Nc2ccccn2)Oc2ccc(C)cc2)cc1,inactive: 4700
18,CC(=O)NC(SC(=S)N(CC(C)C)CC(C)C)C(Cl)(Cl)Cl (stereo not drawn),inactive: 2020
19,Cc1c([N+](=O)[O-])cc([N+](=O)[O-])c(Br)c1[N+](=O)[O-],inactive: 3980
20,COC(=O)c1cc2c(s1)N=C(c1ccccc1)N(C)P2(=O)N1CCOCC1 (stereo not drawn),inactive: 2800
21,CC(C)c1ccc(OP(C)(=O)Nc2ccc(SC(F)(F)F)cc2)cc1 (stereo not drawn),inactive: 2480
22,CC(C)(C)C(=O)NC(Sc1ccccc1)C(Cl)(Cl)Cl (stereo not drawn),inactive: 4880
